Reference: US20210292393A1 (published 2021)
Numbering of substitutions follows the chain as printed. Read-outs that look alike come from different tables or passages of the source.

Assays:
[1] = molecular target: T1, SARS-CoV spike protein (full-length trimeric, on beads) (SARS-CoV, UniProt P59594 14-1190); assay: multiplexed bead assay, flow cytometry
[2] = molecular target: T1, SARS-CoV spike protein (full-length …); assay: multiplexed bead assay, flow cytometry; remark: listed apart in the source
[3] = molecular target: T2, SARS-CoV spike protein (full length spike, trimeric, conjugated to beads) (SARS-CoV, UniProt P59594 14-1190); assay: multiplexed bead assay, flow cytometry
[4] = molecular target: T2, SARS-CoV spike protein (full length …); assay: multiplexed bead assay, flow cytometry; remark: listed apart in the source
SARS-CoV spike protein [5] = molecular target: T3, SARS-CoV spike protein (SARS-CoV, UniProt P59594 14-1190); assay: multiplexed bead assay, flow cytometry
SARS-CoV spike protein [6] = molecular target: T3, SARS-CoV spike protein; assay: multiplexed bead assay, flow cytometry; remark: listed apart in the source
[7] = molecular target: T1, SARS-CoV spike protein (full-length …); assay: multiplexed bead assay, flow cytometry; remark: listed apart in the source
[8] = molecular target: T1, SARS-CoV spike protein (full-length …); assay: multiplexed bead assay, flow cytometry; remark: listed apart in the source
[9] = molecular target: T1, SARS-CoV spike protein (full-length …); assay: multiplexed bead assay, flow cytometry; remark: listed apart in the source
[10] = molecular target: T4, SARS-CoV spike protein (full-length trimeric, conjugated to optically encoded beads) (SARS-CoV, UniProt P59594 14-1190); assay: multiplexed bead assay, flow cytometry, SARS-CoV spike on beads
[11] = molecular target: T4, SARS-CoV spike protein (full-length …); assay: as above; remark: listed apart in the source
[12] = molecular target: T4, SARS-CoV spike protein (full-length …); assay: as above; remark: listed apart in the source
[13] = molecular target: T4, SARS-CoV spike protein (full-length …); assay: as above; remark: listed apart in the source

B1: antibody 520 (antibody, V domains shown)
VH: QVQLVESGGGVVQPGRSLRLSCAASGFTFSSYAMHWGRQAPGKGLEWVAVISYDGSNKYYADSVKGRFTISRDNSKNTLYLQMNSLRAEDTAVYYCARDGGSGWLLVGNWFDPWGQGTLVTVSS
VL: QSALTQPASVSGSPGQSITISCTGTSSDVGGYNYVSWYQQHPGKAPKLMIYDVSNRPSGVSNRFSGSKSGNTASLTISGLQAEDEADYYCSSYTSSITLYVFGTGTKVTVL
- bead binding signal, fold over isotype control [1]: 10.7 fold over isotype
- bead binding signal, fold over isotype control [2]: 17.7 fold over isotype

B2: antibody 400 (antibody, V domains shown)
VH: QVQLVESGGGVVQPGRSLRLSCAASGFTFSSYGMHWVRQAPGKGLEWVAVISYDGSNKYYADSVKGRFTISRDNSKNTLYLQMNSLRAEDTAVYYCAKAIDILTGYGPGGMDVWGQGTTVTVSS
VL: QSVLTQPPSASGTPGQRVTISCSGSSSNIGSNYVYWYQQLPGTAPKLLIYRNNQRPSGVPDRFSGSKSGTSASLAISGLRSEDEADYYCAAWDDSLSGVVFGGGTKLTVL
- median fluorescence, fold over isotype control [3]: 1 fold over isotype control
- median fluorescence, fold over isotype control [4]: 0.91 fold over isotype control

B3: antibody 336 (antibody, V domains shown)
VH: QVQLVESGGGVVQPGRSLRLSCAASGFTFSSYAMHWVRQAPGKGLEWVAVISYDGSNKYYADSVKGRFTISRDNSKNTLYLQMNSLRAEDTAVYYCARAQTDYYDSSGWFDYWGQGTLVTVSS
VL: SYELTQPPSVSVSPGQTARITCSGDALPKQYAYWYQQKPGQAPVLVIYKDSERPSGIPERFSGSSSGTTVTLTISGVQAEDEADYYCQSADSSGTPHWVFGGGTKLTVL
- median fluorescence intensity, fold over isotype control (SARS-CoV spike protein [5]): 1.08 fold over isotype
- median fluorescence intensity, fold over isotype control (SARS-CoV spike protein [6]): 1.09 fold over isotype

B4: antibody 532 (antibody, V domains shown)
VH: EVQLVESGGGLVQPGGSLRLSCAASGIIVSSNYMSWVRQAPGKGLEWVSVIYSGGSTYYADSVKGRFTISRDNSKNTLYLQMNSLRAEDTAVYYCAREGLVGATLAFDYWGQGTLVTVSS
VL: not shown
- bead binding signal, fold over isotype control [7]: 0.82 fold over isotype
- bead binding signal, fold over isotype control [8]: 0.8 fold over isotype
- bead binding signal, fold over isotype control [1]: 1 fold over isotype
- bead binding signal, fold over isotype control [9]: 0.82 fold over isotype
- bead binding signal, fold over isotype control [2]: 1.03 fold over isotype

B5: antibody 338 (antibody, V domains shown)
VH: QVQLQESGPGLVKPSETLSLTCAVSGYSISSDYYWGWIRQPPGKGLEWIGSIYHSGSTYYNPSLKSRVTISIDTSKNQFSLKLSSVTAADTAVYYCARDPGNYDILTGIFDYWGQGTLVTVSS
VL: QSALTQPASVSGSPGQSITISCTGTSSDVGVYNYVSWYQQHPGKAPKLMIYDVTNRPSGVSNRFSGSKSGNTASLTISGLQAEDEADYYCSSYTSSSTLAVYVFGTGTKVTVL
- median fluorescence intensity, fold over isotype control (SARS-CoV spike protein [5]): 36.6 fold over isotype
- median fluorescence intensity, fold over isotype control (SARS-CoV spike protein [6]): 84.8 fold over isotype

B6: antibody 518 (antibody, V domains shown)
VH: QVQLVESGGGVVQPGRSLRLSCAASGFTFSSYAMHWVRQAPGKGLEWVAVISYDGSNKYYADSVKGRFTISRDNSKNTLYLQMNSLRAEDTAVYYCAKPYSGSYWDAFDIWGQGTMVTVSS
VL: not shown
- bead binding signal, fold over isotype control [7]: 7.54 fold over isotype
- bead binding signal, fold over isotype control [8]: 15.3 fold over isotype
- bead binding signal, fold over isotype control [1]: 40.1 fold over isotype
- bead binding signal, fold over isotype control [9]: 38.8 fold over isotype
- bead binding signal, fold over isotype control [2]: 90.2 fold over isotype

B7: antibody 562 (antibody, V domains shown)
VH: B6 VH with K98R, P99A, Y100S, S103G, W105Q, D106G, A107P, I110P, M116L
VL: QSALTQPASVSGSPGQSITISCTGTSSDVGGYNYVSWYQQHPGKAPKLMIYDVSNRPSGVSNRFSGSKSGNTASLTISGLQAEDEADYYCSSYTSSSTLLYVFGTGTKVTVLG
- fold over isotype control (median fluorescence intensity) [10]: 17.9 fold over isotype
- fold over isotype control (median fluorescence intensity) [11]: 6.09 fold over isotype
- fold over isotype control (median fluorescence intensity) [12]: 2.57 fold over isotype
- fold over isotype control (median fluorescence intensity) [13]: 5.67 fold over isotype
